Like-named read-outs stand apart in the source and are kept apart here.
B1: 11729-HC-Cterm-45d (antibody)
heavy (part 1 of 2): QVQLVQSGAEVKKSGSSVKVSCKASGGTFSSYAISWVRQAPGQGLEWMGGIIPIFGTPSYAQKFQDRVTITTDESTSTVYMELSSLRSEDTAVYYCARQQPVYQYNMDVWGQGTTVTVSS
VL: DIQMTQSPSSLSASVGDRVTITCRASQGIRNNLGWYQQKPLKAPKRLIYAASSLQSGVPSRFSGSGSGTEFTLTISSLQPEDFATYYCLQYNNYPWTFGQGTKVEIK
modifications: not checked
B2: 11729-LC-Cterm-11 (mAb 11729 conjugated to compound 11 via LLQGA pentapeptide at the antibody light chain C-terminus) (antibody)
VH: B1 heavy (part 1 of 2)
light (part 1 of 2): B1 VL
modifications: not checked
B3: 11729-LC-Nterm-11 (mAb 11729 conjugated to compound 11 via LLQGA pentapeptide at the antibody light chain N-terminus) (antibody)
VH: B1 heavy (part 1 of 2)
light: LLQGADIQMTQSPSSLSASVGDRVTITCRASQGIRNNLGWYQQKPLKAPKRLIYAASSLQSGVPSRFSGSGSGTEFTLTISSLQPEDFATYYCLQYNNYPWTFGQGTKVEIK
modifications: not checked

What was measured:
[1] = biological target: T1, influenza hemagglutinin (HA) of H1N1 A/Puerto Rico/08/1934 influenza virus on infected MDCK London cells (Influenza A virus H1N1 A/Puerto Rico/08/1934), P03452
[2] = biological target: T1, influenza hemagglutinin (HA) of H1N1 …; remark: listed apart in the source

| Binder | EC50 (read off the curve) [1] [nM] | EC50 (read off the curve) [2] [nM] |
| --- | --- | --- |
| B1 | 4 |  |
| B2 |  | 3 |
| B3 |  | 4 |
